Molecular target: Histamine H4 receptor (Homo sapiens, UniProt Q9H3N8)
Conditions: Sf9

Sequences of proteins named here, by UniProt entry; tags and fusion partners are left off. A change or cut given only in a name is not applied to a line headed by its entry.
UniProt Q9H3N8: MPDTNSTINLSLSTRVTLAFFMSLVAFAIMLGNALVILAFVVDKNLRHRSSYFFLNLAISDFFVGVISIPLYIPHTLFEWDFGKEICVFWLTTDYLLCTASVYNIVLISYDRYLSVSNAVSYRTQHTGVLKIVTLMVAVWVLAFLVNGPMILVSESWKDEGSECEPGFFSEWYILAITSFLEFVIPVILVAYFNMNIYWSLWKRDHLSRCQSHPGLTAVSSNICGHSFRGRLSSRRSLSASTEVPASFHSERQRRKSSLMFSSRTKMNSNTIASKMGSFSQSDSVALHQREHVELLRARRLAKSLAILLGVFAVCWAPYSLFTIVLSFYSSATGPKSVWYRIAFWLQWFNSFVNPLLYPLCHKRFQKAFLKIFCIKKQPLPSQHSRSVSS

Row | SMILES | pKb
1 | Cc1nc(N)sc1CCCN/C(N)=N/C(=O)CCCCCCCCC(=O)/N=C(\N)NCCCc1cnc(N)s1 | < 5
2 | N/C(=N\C(=O)CCCCCCC(=O)/N=C(\N)NCCCc1cnc(N)s1)NCCCc1cnc(N)s1 | < 6
3 | N/C(=N\C(=O)CCCCCCCCC(=O)/N=C(\N)NCCCc1cnc(N)s1)NCCCc1cnc(N)s1 | < 6
4 | Cc1nc(N)sc1CCCN/C(N)=N/C(=O)CCCCCCCCC(=O)/N=C(\N)NCCCc1sc(N)nc1C | < 6
5 | Cc1nc(N)sc1CCCN/C(N)=N/C(=O)CCCCC(=O)/N=C(\N)NCCCc1sc(N)nc1C | < 6
6 | Cc1nc(N)sc1CCCN/C(N)=N/C(=O)CCCCCCCCCCCCCCC(=O)/N=C(\N)NCCCc1sc(N)nc1C | < 6
7 | Cc1nc(N)sc1CCCN/C(N)=N/C(=O)CCCCCCC(=O)/N=C(\N)NCCCc1sc(N)nc1C | < 6

From ChEMBL document CHEMBL2163257 (J Med Chem, 2012)
